A mixed list of measured activities; the numbers were collected in NIAID ChemDB.

Common to all: tests in culture; species: Hepatitis C virus; measure: EC50

An empty or dashed field is not shown. a–b is a range or a potency band. Neighbouring rows are from separate reports. ECn is the concentration giving n% inhibition of infection, replication or growth.

smiles | strain or isolate | read by | value
CC1(C)CC(=O)C2=C(C1)Nc1c(O)cccc1N(C(=O)CCC(=O)N1CCC(c3ccccc3)CC1)C2c1ccc(OCc2ccccc2)cc1Cl | 1b | luciferase / reporter gene / replicon | 4.31 µM
CC(C)S(=O)(=O)NC(=O)c1c(-c2ccc[nH]c2=O)c2c3c(c(F)cc2n1Cc1csc(C(N)=O)c1)CCO3 |  | replicon | <0.5 µM
CC(=O)N1c2cccc(O)c2NC2=C(C(=O)CC(C)(C)C2)C1c1ccc(Oc2ccccc2)o1 | 1b | luciferase / reporter gene / replicon | 10.21 µM
NC(=O)c1ccc(-c2ccc3nc(NCc4ccc(S(N)(=O)=O)cc4)nc(NC4CC4)c3n2)cc1 |  | replicon | <0.1 µM
CNC(=O)c1ccc(F)c(Cn2c(C(=O)O)c(-c3ccc[nH]c3=O)c3c4occc4c(F)cc32)c1 |  | replicon | <0.5 µM
CC(=O)N1c2cccc(O)c2NC2=C(C(=O)CC(C)(C)C2)C1c1cccs1 | 1b | luciferase / reporter gene / replicon | 1.94 µM
CCCCCCCCOc1ccc(N(C(=O)COC(C)=O)c2nc(-c3ccc(F)cc3)cs2)cc1 |  |  | <1 µM
CC1(C)CC(=O)C2=C(C1)Nc1c(O)cccc1N(C(=O)CCc1nn[nH]n1)C2c1ccc(Cl)cc1Cl | 1b | luciferase / reporter gene / replicon | >100 µM
COc1ccc(N(C(N)=O)c2nc(-c3ccc(F)cc3)cs2)cc1C(F)(F)F |  |  | <1 µM
CN1CCN(c2cc3c(cc2F)c(=O)c(-c2noc(C(CCC(N)=O)c4ccccc4)n2)cn3Cc2ccc(Cl)cc2)CC1 | 1b | replicon | >10 µM
COCCN(C(=O)C1CCC(C)CC1)c1cc(-c2ccc(NC(=O)c3cn(C)cn3)cc2)sc1C(=O)O | 1a | replicon | <0.5 µM
O=c1c(-c2noc(Cc3ccccc3)n2)cn(Cc2ccc(Cl)cc2)c2cc(N3CCNCC3)c(F)cc12 | 1b | replicon | >10 µM
Nc1cc(Cn2c(C(=O)NS(=O)(=O)c3ccc(O)cc3)c(-c3ccc[nH]c3=O)c3c4ccccc4ccc32)ccn1 |  | replicon | 1–10 µM
CCCCCCCCOc1ccc(N(C(C)=O)c2nc(-c3cccnc3)cs2)cc1C(F)(F)F |  |  | <1 µM
CN1CCN(c2cc3c(cc2F)c(=O)c(-c2noc(Cc4c(F)cccc4F)n2)cn3Cc2ccc(Cl)cc2)CC1 | 1b | replicon | <2 µM
Cc1ccc(C(=O)Nc2ccc(-c3cc(N(C(=O)C4CCC(C)CC4)C(C)C)c(C(=O)O)s3)cc2)cn1 | 1a | replicon | >0.5 µM
CN1CCN(c2cc3c(cc2F)c(=O)c(-c2noc(Cc4ccccc4)n2)cn3Cc2ccc(C(F)(F)F)cc2F)CC1 | 1b | replicon | <2 µM
NC(=O)CCNc1nc(NCc2ccc(F)cc2)nc2ccc(-c3ccc(F)cc3)nc12 |  | replicon | <0.1 µM
NC(=O)c1cc(Cn2c(C(=O)O)c(-c3ccc[nH]c3=O)c3c4occc4c(F)cc32)cs1 |  | replicon | <0.5 µM
CCOc1nc(NCc2ccc(S(N)(=O)=O)cc2)nc2ccc(-c3ccc(NC(=O)C4CCNC4)cc3)nc12 |  | replicon | <0.1 µM
CC1CCC(C(=O)N(c2cc(-c3ccc(NC(=O)c4cscn4)nc3)sc2C(=O)O)C(C)C)CC1 | 1b | replicon | <0.5 µM
CCCCCOc1ccc(N(C(N)=O)c2nc(-c3cccnc3C)cs2)cc1C(F)(F)F |  |  | <1 µM
O=c1c(-c2noc(Cc3ccccc3)n2)cn(Cc2ccc(C(F)(F)F)cc2)c2cc(-n3ccnc3)c(F)cc12 | 1b | replicon | <2 µM
NC(=O)COc1ccc2c(c1)S(=O)(=O)N=C(c1c(O)c3cc(F)ccc3n(CCC3CC3)c1=O)N2 | 1a H77 | replicon | 0.013 µM
CCCCCCCCOc1ccc(N(C(N)=O)c2nc(-c3ccc(C(=O)N(C)C)nc3)cs2)cc1 |  |  | >10 µM
CC(=O)N1c2cccc(O)c2NC2=C(C(=O)CC(C)(C)C2)C1c1cccc(Cl)c1 | 1b | luciferase / reporter gene / replicon | 4.97 µM
NC(=O)c1cnc(F)c(Cn2c(C(=O)NS(=O)(=O)C3CC3)c(-c3ccc[nH]c3=O)c3c4occc4c(F)cc32)c1 |  | replicon | <0.5 µM
CC(=O)N1c2cccc(O)c2NC2=C(C(=O)CC(C)(C)C2)C1c1cc(Cl)cc(Cl)c1 | 1b | luciferase / reporter gene / replicon | 3.52 µM
CCCCCN(C)c1ccc(N(C(N)=O)c2nc(-c3ccc(F)c(F)c3)cs2)cc1C(F)(F)F |  |  | <1 µM
CS(=O)(=O)NC(=O)c1c(-c2ccc[nH]c2=O)c2c3c(ccc2n1Cc1ccccc1F)OC(F)(F)O3 |  | replicon | >1.5 µM
CC1CCC(C(=O)N(c2cc(-c3ccc(NC(=O)c4cn(C)cn4)cc3)sc2C(=O)O)C(C)C)CC1 | 1b | replicon | <0.5 µM
C[C@H](N)C(=O)Nc1ccc(-c2ccc3nc(NCc4ccc(S(N)(=O)=O)cc4)nc(NCC(F)(F)F)c3n2)cc1Cl |  | replicon | <0.1 µM
CCCCCOc1ccc(N(C(N)=O)c2nc(-c3ccc(F)cc3)cs2)cc1C(F)(F)F |  |  | <1 µM
COCC(C)N(C(=O)C1CCC(C)CC1)c1cc(-c2ccc(NC(=O)c3cscn3)cc2)sc1C(=O)O | 1a | replicon | <0.5 µM
CC1(C)CC(=O)C2=C(C1)Nc1c(O)cccc1NC2c1ccc(OCc2cc(F)cc(F)c2)cc1F | 1b | luciferase / reporter gene / replicon | 5.68 µM
CN1CCN(c2cc3c(cc2F)c(=O)c(-c2noc(Cc4ccc(F)cc4)n2)cn3Cc2ccccc2F)CC1 | 1b | replicon | <10 µM
CC(C)Nc1nc(NCC(F)(F)F)nc2ccc(-c3ccc(F)cc3)nc12 |  | replicon | <0.1 µM
CC1(C)CC(=O)C2=C(C1)Nc1c(O)cccc1NC2c1ccc(C(F)(F)F)cc1 | 1b | luciferase / reporter gene / replicon | 36.48 µM

Repeating the first 2 entries:

smiles	strain or isolate	read by	value
CC1(C)CC(=O)C2=C(C1)Nc1c(O)cccc1N(C(=O)CCC(=O)N1CCC(c3ccccc3)CC1)C2c1ccc(OCc2ccccc2)cc1Cl	1b	luciferase / reporter gene / replicon	4.31 µM
CC(C)S(=O)(=O)NC(=O)c1c(-c2ccc[nH]c2=O)c2c3c(c(F)cc2n1Cc1csc(C(N)=O)c1)CCO3		replicon	<0.5 µM